Reference: patent US20170049848A1, “Target for Firmicutes and Related Bacteria: The PRP Protease” (VIRGINIA COMMONWEALTH UNIVERSITY, published 2017)
Substitutions are numbered along the chain they refer to. Names and notes keep the numbering of the source.

B1: Staphylococcus aureus Prp C34A, untagged (enzyme)
chain: MITVDITVNDEGKVTDVIMDGHADHGEYGHDIVAAGASAVLFGSVNAIIGLTSERPDINYDDNGGHFHIRSVDTNNDEAQLILQTMLVSLQTIEEEYNENIRLNYK
B2: Staphylococcus aureus Prp N46A, untagged (enzyme)
chain: B1 chain with A34C, N46A

Target: Staphylococcus aureus ribosomal protein L27 with C-terminal Myc and His6 tags (Staphylococcus aureus, UniProt Q2FXT0 1-94)

Binder	binding result
B1	binds
B2	binds
